Values from PubChem BioAssay AID1259414 (Drosophila RNAi Screening Center, 2018)
The deposit covers about 24,000 reagents; shown is a random part of those with a known target gene and a result. In the full data, about 1,210 (5%) got an active call. 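Inactive calls also include excluded dsRNAs with several or no targets, genes unexpressed in JW18, and well A1, regardless of score.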 A number with no mark means an inactive call.

Purpose: 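Host factors increasing or decreasing Wolbachia levels in cultured fly cells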 (primary screen)
Cells: Drosophila JW18 cells infected with Wolbachia
Reagent: long dsRNA against Drosophila genes, 0.25 µg dsRNA per well of a 384-well plate
Duration: 5 days
Challenge: cells persistently infected with Wolbachia before knock-down; no added drug
Measurement: 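Imaged fluorescence in situ signal for Wolbachia 23S rRNA per DAPI-counted host cell, given as a robust z-score within each plate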
Reading the numbers: Wolbachia per cell robust z: higher = more Wolbachia per host cell than the plate typical
Call rule: 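Active if absolute robust z reaches 1.5 in two or more of three replicates, leaving out multi- or no-target dsRNAs, genes unexpressed in JW18 and A1 wells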

The opening 2 records, ahead of the listing:
target gene,amplicon,"Wolbachia per cell robust z, rep 1","Wolbachia per cell robust z, rep 2","Wolbachia per cell robust z, rep 3"
AIMP1,DRSC07118,-0.00991,-0.721,0.247
AIMP1,DRSC25922,-0.0814,-0.435,-0.37

The listing, from the start:
target gene,amplicon,"Wolbachia per cell robust z, rep 1","Wolbachia per cell robust z, rep 2","Wolbachia per cell robust z, rep 3"
AIMP1,DRSC07118,-0.00991,-0.721,0.247
AIMP1,DRSC25922,-0.0814,-0.435,-0.37
CG1628,DRSC18109,0.0922,0.113,-0.616
btl,DRSC11331,-1.41,-0.25,-0.46
btl,DRSC36653,-0.822,-0.0836,-0.137
Aptx,DRSC15768,-0.865,-5.36,0.554
Aptx,DRSC28121,-0.648,0.726,-0.0822
scny,DRSC10509,0.599,0.323,0.204
scny,DRSC23229,0.905,1.44,0.787
scny,DRSC27520,-0.593,0.259,0.809
Or49b,DRSC07494,0.243,0.493,0.501
slmb,DRSC17056,6.56,4.68,5.5
slmb,DRSC40762,1.03,0.527,-0.097
lncRNA:roX2,DRSC22237,1.16,1.13,0.784
lncRNA:roX2,DRSC27049,0.798,0.161,1.25
CG18765,DRSC15392,0.728,-0.291,0.863
Tbcd,DRSC00273,-0.204,-7.62,0.528
CG14355,DRSC14818,-2.69,-1.03,0.531
l(2)gd1,DRSC02773,0.553,0.52,-0.854
l(2)gd1,DRSC29178,-6.91,-0.757,-0.964
CG10211,DRSC02027,0.83,0.609,1.12
CG10211,DRSC28675,-0.322,0.241,-0.835
Ae2,DRSC08997,-1.18,-1.05,-1.05
Ae2,DRSC10969,-4.84 (active),1.24,-8.37
APC7,DRSC17937,-0.188,-0.825,0.753
APC7,DRSC27097,-0.0771,-0.935,-0.0153
Karybeta3,DRSC12355,0.0379,-1.13,0.467
OS9,DRSC02700,0.144,-0.342,0.427
OS9,DRSC27743,-0.693,-1.17,-0.784
